Laboratory results taken from article PMC2912912 (BMC Structural Biology, 2010).

B1: IpgC^10-155 Ala^94Glu/Val^95Gln double mutant (domain or fragment)
chain: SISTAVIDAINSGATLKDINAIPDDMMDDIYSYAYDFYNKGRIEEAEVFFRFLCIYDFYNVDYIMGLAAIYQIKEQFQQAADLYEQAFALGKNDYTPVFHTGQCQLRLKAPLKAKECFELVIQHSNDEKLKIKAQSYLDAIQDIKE
B2: IpgC^1-151 Ala^94Glu/Val^95Gln double mutant (domain or fragment)
chain: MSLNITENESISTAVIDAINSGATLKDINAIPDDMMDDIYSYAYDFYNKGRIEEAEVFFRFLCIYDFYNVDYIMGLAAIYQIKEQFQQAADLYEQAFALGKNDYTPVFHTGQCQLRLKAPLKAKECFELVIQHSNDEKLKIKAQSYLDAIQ

Biological target: the molecule itself
Experiment: SEC

| Protein | stoichiometry N |
| --- | --- |
| B1 | 2 |
| B2 | 2 |
